The values below are quoted from earlier work in patent US20030176652A1, “Human and mouse beta-defensins, antimicrobial peptides” (priority 2001, published 2003).

The subject of this series is Legionella spp. On the set-up: unit not given beside the values.

With `CC[C@H]1OC(=O)[C@H](C)[C@@H](O[C@H]2C[C@@](C)(OC)[C@@H](O)[C@H](C)O2)[C@H](C)[C@@H](O[C@@H]2O[C@H](C)C[C@H](N(C)C)[C@H]2O)[C@](C)(O)C[C@@H](C)C(=O)[C@H](C)[C@@H](O)[C@]1(C)O` [ERYTHROMYCIN, erythromycin], the MIC90 is reported as 0.25.
